Results deposited as PubChem BioAssay AID624099 (ICCB-Longwood, 2012).

Assay: 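Knock-downs relieving repression by E2 of an HPV18 LCR luciferase reporter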 (primary screen)
Cells: human C33A cervical carcinoma cells (HPV-negative) stably expressing BPV1 E2 and an HPV18 LCR luciferase reporter
Reagents: siRNA pool against human genes, 40 nM
Duration: 72 h
Measurement: 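HPV18 LCR reporter light per well, converted to plate-wise z-scores that exclude control wells, and averaged over triplicate plates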
Direction: mean z-score and z-score: higher = stronger reporter signal, weaker E2 silencing
Hit rule: 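Hit if mean z-score reaches 2 and two or more of three replicate z-scores also reach 2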
Shown is one part, drawn at random, of about 21,000 reagents. 497 of them (2.4%) were called active. 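Higher z means weaker E2 silencing; only reporter increases were scored, and knock-downs that hurt cell survival may mask genuine repressor factors.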 Reagent sequences are not shown.

The opening 2 entries as a preview:
{"gene knocked down": "LOC400567 (retired record) (GeneID 400567)", "mean z-score": 0.2, "z-score, replicate A": 0.41, "z-score, replicate B": 0.31, "z-score, replicate C": -0.12, "outcome": "inactive"}
{"gene knocked down": "GUCY1B1 (GeneID 2983)", "mean z-score": 0.79, "z-score, replicate A": 0.64, "z-score, replicate B": 1.06, "z-score, replicate C": 0.68, "outcome": "inactive"}

The list itself, repeating the preview:
{"gene knocked down": "LOC400567 (retired record) (GeneID 400567)", "mean z-score": 0.2, "z-score, replicate A": 0.41, "z-score, replicate B": 0.31, "z-score, replicate C": -0.12, "outcome": "inactive"}
{"gene knocked down": "GUCY1B1 (GeneID 2983)", "mean z-score": 0.79, "z-score, replicate A": 0.64, "z-score, replicate B": 1.06, "z-score, replicate C": 0.68, "outcome": "inactive"}
{"gene knocked down": "FKBP1B (GeneID 2281)", "mean z-score": 0.25, "z-score, replicate A": 0.07, "z-score, replicate B": 0.48, "z-score, replicate C": 0.21, "outcome": "inactive"}
{"gene knocked down": "SCP2 (GeneID 6342)", "mean z-score": -0.26, "z-score, replicate A": -0.21, "z-score, replicate B": -0.22, "z-score, replicate C": -0.36, "outcome": "inactive"}
{"gene knocked down": "LOC400782 (retired record) (GeneID 400782)", "mean z-score": 1.09, "z-score, replicate A": 1.12, "z-score, replicate B": 1.23, "z-score, replicate C": 0.91, "outcome": "inactive"}
{"gene knocked down": "LOC401495 (retired record) (GeneID 401495)", "mean z-score": -1.27, "z-score, replicate A": -1.65, "z-score, replicate B": -1.46, "z-score, replicate C": -0.7, "outcome": "inactive"}
{"gene knocked down": "MARK1 (GeneID 4139)", "mean z-score": 0.31, "z-score, replicate A": 0.36, "z-score, replicate B": 0.59, "z-score, replicate C": -0.01, "outcome": "inactive"}
{"gene knocked down": "PCDHA10 (GeneID 56139)", "mean z-score": 0.2, "z-score, replicate A": 0.3, "z-score, replicate B": 0.12, "z-score, replicate C": 0.19, "outcome": "inactive"}
{"gene knocked down": "EIF2A (GeneID 83939)", "mean z-score": -0.52, "z-score, replicate A": -0.58, "z-score, replicate B": -0.26, "z-score, replicate C": -0.72, "outcome": "inactive"}
{"gene knocked down": "A1CF (GeneID 29974)", "mean z-score": 0.5, "z-score, replicate A": 0.71, "z-score, replicate B": 0.35, "z-score, replicate C": 0.44, "outcome": "inactive"}
{"gene knocked down": "ZNF74 (GeneID 7625)", "mean z-score": -0.16, "z-score, replicate A": -0.21, "z-score, replicate B": -0.19, "z-score, replicate C": -0.08, "outcome": "inactive"}
{"gene knocked down": "NT5C (GeneID 30833)", "mean z-score": 0.41, "z-score, replicate A": 0.85, "z-score, replicate B": 0.29, "z-score, replicate C": 0.08, "outcome": "inactive"}
{"gene knocked down": "DQX1 (GeneID 165545)", "mean z-score": -0.41, "z-score, replicate A": -0.4, "z-score, replicate B": 0.01, "z-score, replicate C": -0.84, "outcome": "inactive"}
{"gene knocked down": "C11orf58 (GeneID 10944)", "mean z-score": 0.37, "z-score, replicate A": 0.53, "z-score, replicate B": 0.43, "z-score, replicate C": 0.15, "outcome": "inactive"}
{"gene knocked down": "VIPAS39 (GeneID 63894)", "mean z-score": -1.08, "z-score, replicate A": -0.76, "z-score, replicate B": -1.23, "z-score, replicate C": -1.26, "outcome": "inactive"}
{"gene knocked down": "PATL2 (GeneID 197135)", "mean z-score": 0.49, "z-score, replicate A": 0.3, "z-score, replicate B": 0.27, "z-score, replicate C": 0.89, "outcome": "inactive"}
{"gene knocked down": "ABCC11 (GeneID 85320)", "mean z-score": -0.18, "z-score, replicate A": -0.1, "z-score, replicate B": 0.04, "z-score, replicate C": -0.48, "outcome": "inactive"}
{"gene knocked down": "ZC2HC1B (GeneID 153918)", "mean z-score": 0.4, "z-score, replicate A": 0.54, "z-score, replicate B": 0.25, "z-score, replicate C": 0.42, "outcome": "inactive"}
{"gene knocked down": "RPL3L (GeneID 6123)", "mean z-score": 0.76, "z-score, replicate A": 0.68, "z-score, replicate B": 0.76, "z-score, replicate C": 0.83, "outcome": "inactive"}
{"gene knocked down": "SLC12A4 (GeneID 6560)", "mean z-score": 0.43, "z-score, replicate A": 0.38, "z-score, replicate B": 0.45, "z-score, replicate C": 0.44, "outcome": "inactive"}
{"gene knocked down": "GSK3B (GeneID 2932)", "mean z-score": 0.98, "z-score, replicate A": 1.31, "z-score, replicate B": 0.82, "z-score, replicate C": 0.82, "outcome": "inactive"}
{"gene knocked down": "SPATA9 (GeneID 83890)", "mean z-score": -2.42, "z-score, replicate A": -2.44, "z-score, replicate B": -2.65, "z-score, replicate C": -2.16, "outcome": "inactive"}
{"gene knocked down": "DSE (GeneID 29940)", "mean z-score": -0.52, "z-score, replicate A": -0.19, "z-score, replicate B": -0.7, "z-score, replicate C": -0.65, "outcome": "inactive"}
{"gene knocked down": "HINFP (GeneID 25988)", "mean z-score": -1.23, "z-score, replicate A": -0.98, "z-score, replicate B": -1.24, "z-score, replicate C": -1.47, "outcome": "inactive"}
{"gene knocked down": "WDR72 (GeneID 256764)", "mean z-score": 0.29, "z-score, replicate A": 0.01, "z-score, replicate B": 0.41, "z-score, replicate C": 0.46, "outcome": "inactive"}
{"gene knocked down": "ZAR1 (GeneID 326340)", "mean z-score": 1.73, "z-score, replicate A": 2, "z-score, replicate B": 1.7, "z-score, replicate C": 1.48, "outcome": "inactive"}
{"gene knocked down": "LOC401530 (retired record) (GeneID 401530)", "mean z-score": -1.3, "z-score, replicate A": -1.22, "z-score, replicate B": -1.42, "z-score, replicate C": -1.28, "outcome": "inactive"}
